Source: ChEMBL document CHEMBL1139785, “Synthesis of novel HIV protease inhibitors (PI) with activity against PI-resistant virus” (Bioorg Med Chem Lett, 2007)

Target: Protease (Human immunodeficiency virus 1, UniProt Q9YQ12)
Assay: Inhibition of wild type HIV1 NL4-3 protease

Structure (SMILES): CC(C)(C)NC(=O)[C@@H]1CN(Cc2cccnc2)CCN1C[C@@H](O)CC(Cc1ccccc1)C(=O)N[C@H]1c2ccccc2C[C@H]1O (single isomer, unassigned) [INDINAVIR]
- IC50: 0.6 nM
